Consider one substance from patent US5164196A (priority 1990, dated 1992).

The chains behind the UniProt entries cited, without tags or fusion partners. Where a name states a change or a piece, a line headed by the entry shows the natural chain unless it says otherwise.
UniProt P0CAS2: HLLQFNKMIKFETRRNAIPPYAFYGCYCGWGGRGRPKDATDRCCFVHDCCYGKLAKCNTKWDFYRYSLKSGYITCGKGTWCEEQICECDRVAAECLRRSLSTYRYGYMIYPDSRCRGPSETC

pKd: −log10 of the molar value.

The target of the test is crotoxin B (basic phospholipase A2, subunit B) from Crotalus durissus terrificus venom (Crotalus durissus terrificus, UniProt P0CAS2). In words: Fluorescence spectroscopy of crotoxin B in the presence of phospholipid vesicles. To be noted: read-out: apparent dissociation constant; zwitterionic phospholipid vesicles; change in fluorescence intensity vs phospholipid concentration.

Take phosphatidylcholine: the pKd is 2.70 to 3.00.
